Reference: patent publication US11007274B2, “Compounds for medicinal applications” (Ausvir Therapeutics Pty LTD, priority 2015, dated 2021)
“And” between values parts separate entries of the source, which are not always exact repeats. Identical values can stand only once. Like-named read-outs stand apart in the source and are kept apart here. Marks after values point to notes of the source that are not given here.

Assays:
A/Sydney/250/99 [1] = assay: microbe, parasite or virus in culture; assay type: cell-based; details: unidentified influenza virus; Table 8; means of at least three determinations
A/Solomon Island/3/06 = assay: microbe, parasite or virus in culture; assay type: cell-based; details: unidentified influenza virus; Table 8; means of at least three determinations
A/Townsville/74/2011 = assay: microbe, parasite or virus in culture; assay type: cell-based; details: unidentified influenza virus; Table 8; means of at least three determinations
A/Mississippi/03/01 WT = assay: microbe, parasite or virus in culture; assay type: cell-based; details: unidentified influenza virus; Table 8; means of at least three determinations
A/Perth/261/2009 = assay: microbe, parasite or virus in culture; assay type: cell-based; details: unidentified influenza virus; Table 8; means of at least three determinations
A/Victoria/170/2012 = assay: microbe, parasite or virus in culture; assay type: cell-based; details: unidentified influenza virus; Table 8; means of at least three determinations
A/Sydney/5/97 = assay: microbe, parasite or virus in culture; assay type: cell-based; details: unidentified influenza virus; Table 8; means of at least three determinations
A/Victoria/503/06 = assay: microbe, parasite or virus in culture; assay type: cell-based; details: unidentified influenza virus; Table 8; means of at least three determinations
B/Townsville/2/2011 = assay: microbe, parasite or virus in culture; assay type: cell-based; details: unidentified influenza virus; Table 8; means of at least three determinations
[2] = test system: A/California/04/2009 (H1N1); details: mouse, in vivo
A/Victoria/3/75 (H3N2) = details: mouse, in vivo
A/Duck/MN/1525/81 (H5N1) = details: mouse, in vivo
B/Sichuan/379/99 (FluB) = details: mouse, in vivo
A/Sydney/250/99 (H1N1) = details: for MTT colorimetric assay reading, single wells / % over Control (no Infection) / MTT colorimetric assay reading, Average: 5 μg/mL, 72 h
A/Sydney/5/97 (H3N2) = details: for MTT colorimetric assay reading, single wells / % over Control (no Infection) / MTT colorimetric assay reading, Average: 5 μg/mL, 72 h
A/Sydney/250/99 [3] = details: Condition 6, 0.5 μg/mL
[4] = test system: influenza A/PR/8 (H1N1) virus (500 pfu/mouse); details: in vivo
[5] = test system: influenza A/California/04/2009 (H1N1pdm) virus; details: mouse, in vivo
[6] = test system: influenza A/PR/8 (H1N1) virus (500 pfu/mouse)
[7] = test system: influenza A/PR/8 (H1N1) virus (500 pfu/mouse); details: in vivo, ip
[8] = Condition 5 (compound 30 min, then trypsin 30 min, R.T.)
[9] = Condition 6 (virus, compound and trypsin mixed 1 hr, R.T.)
[10] = Condition 7 (virus mixed with compound 1 hr, R.T.)

## CC(=O)N[C@H]1[C@H]([C@H](O)[C@H](O)CO)OC(C(=O)O)=C[C@@H]1N=C(N)N [Zanamivir, reference compound]
A/Sydney/250/99 [1]
  EC50: > 198 nM
A/Solomon Island/3/06
  EC50: > 44 nM
A/Townsville/74/2011
  EC50: > 15 nM
A/Mississippi/03/01 WT
  EC50: > 66 nM
A/Perth/261/2009
  EC50: 6.6 nM
A/Victoria/170/2012
  EC50: > 596 nM
A/Sydney/5/97
  EC50: > 24 nM
A/Victoria/503/06
  EC50: > 198 nM
B/Townsville/2/2011
  EC50: > 1790 nM
[2]
  Mice survivors/total: 2/10
A/Victoria/3/75 (H3N2)
  Mice survivors/total: 8/10 and 3/10
A/Duck/MN/1525/81 (H5N1)
  Mice survivors/total: 7/10
B/Sichuan/379/99 (FluB)
  Mice survivors/total: 9/10
A/Sydney/250/99 (H1N1)
  extracellular neutralisation of virus by pre-treatment: did not affect the infectivity
A/Sydney/250/99 (H1N1); [8]
  MTT colorimetric assay reading, single wells: 0.419 and 0.409 and 0.625
A/Sydney/250/99 (H1N1); Condition 5
  % over Control (no Infection): 21%
  MTT colorimetric assay reading, Average: 0.484
A/Sydney/250/99 (H1N1); [9]
  MTT colorimetric assay reading, single wells: 0.446 and 0.512 and 0.443
A/Sydney/250/99 (H1N1); Condition 6
  % over Control (no Infection): 21%
  MTT colorimetric assay reading, Average: 0.467
A/Sydney/250/99 (H1N1); [10]
  MTT colorimetric assay reading, single wells: 0.663 and 0.791
A/Sydney/250/99 (H1N1); Condition 7
  % over Control (no Infection): 32%
  MTT colorimetric assay reading, Average: 0.727
A/Sydney/5/97 (H3N2)
  extracellular neutralisation of virus by pre-treatment: did not affect the infectivity
A/Sydney/5/97 (H3N2); [8]
  MTT colorimetric assay reading, single wells: 0.329 and 0.325 and 0.303
A/Sydney/5/97 (H3N2); Condition 5
  % over Control (no Infection): 12%
  MTT colorimetric assay reading, Average: 0.319
A/Sydney/5/97 (H3N2); [9]
  MTT colorimetric assay reading, single wells: 0.32 and 0.336 and 0.324
A/Sydney/5/97 (H3N2); Condition 6
  % over Control (no Infection): 13%
  MTT colorimetric assay reading, Average: 0.327
A/Sydney/5/97 (H3N2); [10]
  MTT colorimetric assay reading, single wells: 0.322 and 0.298 and 0.293
A/Sydney/5/97 (H3N2); Condition 7
  % over Control (no Infection): 12%
  MTT colorimetric assay reading, Average: 0.304
A/Sydney/250/99 [3]; 1 min
  % (of Control): 33%
  assay reading, Average: 0.568
A/Sydney/250/99 [3]; 5 min
  % (of Control): 29%
  assay reading, Average: 0.502
  assay reading, single wells: 0.394 and 0.609
A/Sydney/250/99 [3]; 10 min
  % (of Control): 24%
  assay reading, Average: 0.407
  assay reading, single wells: 0.326 and 0.487
A/Sydney/250/99 [3]; 20 min
  % (of Control): 35%
  assay reading, Average: 0.595
  assay reading, single wells: 0.461 and 0.728
A/Sydney/250/99 [3]; 25 min
  % (of Control): 20%
  assay reading, Average: 0.349
  assay reading, single wells: 0.375 and 0.322
A/Sydney/250/99 [3]; 30 min
  % (of Control): 21%
  assay reading, Average: 0.355
  assay reading, single wells: 0.357 and 0.353
[4]
  Mice survivors/total: 0/5
[5]
  Survivors/Total: 0/9^c and 0/10
[6]; Table 38, […], dose not given
  Survivors/Total: 0/5^c
[6]; mouse, in vivo
  Survivors/Total: 0/5^c
[7]
  Survivors/Total: 0/5^c
